Measured values from several laboratories, pooled; numbers as filed in NIAID ChemDB.

All rows: cytotoxicity tests; cells: PBL; endpoint: CC50

Two numbers with a dash give a range or band. Lines come from different laboratories, so protocols vary. Blank or dashed fields: not listed here. CCn is the concentration with n% toxicity to the cells.

smiles	method	result
CC[C@@]1(O)C(=O)OCc2c1cc1n(c2=O)Cc2cc3c([N+](=O)[O-])cccc3nc2-1		~0.02 µM
Nc1c(-c2nccc(=O)[nH]2)ncn1[C@@H]1O[C@H](CO)[C@@H](O)[C@H]1O		1000 µM
CC(C)C[C@H](NC(=O)[C@@H](N)[C@@H](C)O)C(=O)N[C@@H](CC(N)=O)C(=O)N[C@@H](Cc1ccccc1)C(N)=O		>200 µg/mL
C=C(C)OC(=O)N1c2cc(Cl)ccc2NC(=S)C1(C)C		53 µM
C[C@H](CCC(=O)O)[C@H]1CC[C@H]2[C@@H]3[C@H](O)C[C@@H]4C[C@H](O)CC[C@]4(C)[C@H]3C[C@H](O)[C@]12C		0.004 µM
Nc1c(-c2nc(CCl)cc(=O)[nH]2)ncn1[C@@H]1O[C@H](CO)[C@@H](O)[C@H]1O		20 µM
CCCCCCCCNCC(O)CCCCCCCCCn1c(=O)c2c(ncn2C)n(C)c1=O		>32 µM
CC(=O)N[C@H](C(=O)N[C@@H](CC(C)C)C(=O)N[C@@H](CC(N)=O)C(=O)N[C@@H](Cc1ccccc1)C(N)=O)[C@@H](C)O		>200 µg/mL
COc1ccc2c(c1)N(C(=O)OC(C)C)[C@@H](CSC)C(=S)N2		25 µM
CC[C@H](C)[C@H](NC(C)=O)C(=O)NCC(=O)N[C@@H](CC(C)C)C(=O)N[C@H](C(=O)N[C@@H](CC(C)C)C(=O)N[C@@H](CC(N)=O)C(=O)N[C@@H](Cc1ccccc1)C(=O)O)[C@@H](C)O		>200 µg/mL
CCc1c(Sc2ccccc2)n(COCc2ccccc2)c(=O)[nH]c1=O		22 µM
CC(=O)N[C@H](C(=O)N[C@@H](CC(C)C)C(=O)N[C@@H](CC(N)=O)C(=O)N[C@@H](Cc1ccccc1)C(=O)O)[C@@H](C)O		>200 µg/mL
Cc1nc(Oc2ccc(S(C)(=O)=O)cc2)ccc1CN1CCC(N2C(=O)N(c3cc(C(N)=O)c(F)cc3F)C[C@H]2c2ccccc2)CC1		1 nM
CCn1c(C)c(C(=O)OC)c(C(=O)OC)c1Cc1ccccc1		175 µM
O=C(c1c(O)cc(O)cc1O)c1c(-c2ccc(O)cc2)oc2cc(O)c3c(c12)O[C@H](c1ccc(O)cc1)CC3		74 µg/mL
CC(=O)c1ccc(C)cc1NC(C(N)=O)c1c(Cl)cccc1Cl		>300 µM
CSCC[C@H](NC(=O)[C@H](Cc1cnc[nH]1)NC(C)=O)C(=O)N[C@H](C(=O)N[C@@H](CC(C)C)C(=O)N[C@@H](CC(N)=O)C(=O)N[C@@H](Cc1ccccc1)C(=O)O)[C@@H](C)O		>200 µg/mL
Nc1nc(Cl)c2ncn(CCO)c2n1		>100 µM
COc1cc(N=Nc2cc(S(=O)(=O)O)cc3cc(S(=O)(=O)O)cc(O)c23)c(C)cc1NC(=O)Nc1cc(C)c(N=Nc2cc(S(=O)(=O)O)cc3cc(S(=O)(=O)O)cc(O)c23)cc1OC		>100 µM
O=C(OC[C@H]1O[C@@H](OC(=O)c2cc(OS(=O)(=O)O)c(OS(=O)(=O)O)c(OS(=O)(=O)O)c2)[C@H](OC(=O)c2cc(OS(=O)(=O)O)c(OS(=O)(=O)O)c(OS(=O)(=O)O)c2)[C@@H](OC(=O)c2cc(OS(=O)(=O)O)c(OS(=O)(=O)O)c(OS(=O)(=O)O)c2)[C@@H]1OC(=O)c1cc(OS(=O)(=O)O)c(OS(=O)(=O)O)c(OS(=O)(=O)O)c1)c1cc(OS(=O)(=O)O)c(OS(=O)(=O)O)c(OS(=O)(=O)O)c1		150–500 µg/mL
CCCCC#CCSc1ccccc1OC(C)=O	MTT	147 µM
Nc1ncc2ncn(CCO)c2n1		>100 µM
C[C@H](Cn1cnc2c(N)ncnc21)OCP(=O)(O)O		>100 µg/mL
NC(=O)c1c(Cl)c(-c2cccnc2)n2c1CCCC2		144 µM
C[C@H]1[C@H](O)[C@@H](C)/C=C/C=C/C=C/C=C/C=C/C=C/C=C/[C@H](O[C@@H]2O[C@H](C)[C@@H](O)[C@H](N)[C@@H]2O)C[C@@H]2O[C@](O)(C[C@@H](O)C[C@@H](O)CC[C@H](O)[C@@H](O)C[C@@H](O)CC(=O)O[C@H]1C)C[C@H](O)[C@H]2C(=O)O	MTT	>10 µM
Nc1nc(N)c2ncn(OCCCCP(=O)(O)O)c2n1	MTT	>100 µM

The last 2 rows once more:

smiles	method	result
C[C@H]1[C@H](O)[C@@H](C)/C=C/C=C/C=C/C=C/C=C/C=C/C=C/[C@H](O[C@@H]2O[C@H](C)[C@@H](O)[C@H](N)[C@@H]2O)C[C@@H]2O[C@](O)(C[C@@H](O)C[C@@H](O)CC[C@H](O)[C@@H](O)C[C@@H](O)CC(=O)O[C@H]1C)C[C@H](O)[C@H]2C(=O)O	MTT	>10 µM
Nc1nc(N)c2ncn(OCCCCP(=O)(O)O)c2n1	MTT	>100 µM